Compound potency records, mixed from different reports. Data source: NIAID ChemDB in PubChem.

All rows: growth or infection tests; organism: Mycobacterium avium; read-out: MIC

a–b is a range or a potency band. An empty or dashed field is not shown. Conditions beyond the fields shown may differ between rows.

SMILES | strain | cell line | value
COc1cccc(C(N)=Nc2nc(-c3ccccn3)cc3ccccc23)c1 | SN 304 | - | 0.5 µg/mL
CCCCOc1ccccc1NC(=O)OCC[NH+]1CCCC1 | MY330/88 | - | 125 µM
COc1cccc(NC(=O)OCCN2CCCCC2)c1 | MY330/88 | - | 1000 µM
O=C(Nc1ccc(Cl)c(Cl)c1)c1cc(F)ccc1O | CNCTC MY330/88 | - | 8 µM
NC(=S)CSc1ccnc(C(N)=S)c1 | 330/88 | - | 62 µM
CCCCCCCCCCCCCC(C(=O)O)c1ccccc1 | - | - | 2.5 µM
CC(=O)NC[C@H]1CN(c2ccc(N3CCN(c4ccc([N+](=O)[O-])s4)CC3)c(F)c2)C(=O)O1 | AIIMS | - | 0.25 µg/mL
CC(C)(C)n1cc(C(=O)O)c(=O)c2cc(F)c(N3CCNCC3)nc21 | RG0 | - | 1 µg/mL
c1ccc(-c2ccc(CNc3ccccc3-n3ccnc3)cc2)cc1 | 103317 | - | 23.6 µM
O=C(Nc1ccc(Cl)c(Cl)c1)c1cc(F)ccc1O | CNCTC MY330/88 | - | 8 µM
CCCCCCCCCCCCCCC(C(=O)O)c1ccccc1 | - | - | 3.3 µM
N#CCCSc1ccnc(C(N)=S)c1 | 330/88 | - | 250 µM
Nc1ccccc1C(=O)Nc1cccc(F)c1 | MY330/88 | - | 500 µM
CCCOc1cccc(NC(=O)OCCN2CCCCC2)c1 | MY330/88 | - | 250 µM
Brc1ccc(-n2nnnc2SSc2nnnn2-c2ccc(Br)cc2)cc1 | 80/72 | - | 1000 µM
CCOc1ccccc1NC(=O)OCC[NH+]1CCCC1 | MY330/88 | - | >1000 µM
N#CCCCSc1ccnc(C(=N)N)c1 | 330/88 | - | >1000 µM
Fc1ccc(C(Cn2ccnc2)OC/C=C/c2ccccc2)cc1 | 103317 | - | 12.6 µM
CC(=O)Nc1ccc(/C=N/NC(N)=S)cc1 | 3337 | - | 0.15 µg/mL
CCC(C(=O)O)c1ccccc1 | - | - | >100 µM
C(=C\c1ccccc1)/CNc1ccc(N2CCSCC2)cc1 | 103317 | - | 24.7 µM
NC(=Nc1nc(-c2ccccn2)cc2ccccc12)c1ccccn1 | SN 304 | - | 2 µg/mL
COC(=O)C1[C@@H](OC(=O)CC(CCCCCCCCCCC(C)C)OC(=O)CC(C)CC(=O)OC2OC(C)C(OC)C(OC)C2OC)CN(C)C([C@@H](OC2O[C@H](CN)[C@@H](O)[C@H]2O)C2OC(n3ccc(=O)[nH]c3=O)[C@H](O)[C@@H]2O)C(=O)N1C | 3 strains | - | 0.05–0.39 µg/mL
Cc1ccc(C(=O)Nc2ccc(Cl)c(Cl)c2)c(O)c1 | CNCTC MY330/88 | - | 8 µM
Cc1c(F)c(N2CCNC(C)C2)cc2c1c(=O)c(C(=O)O)cn2C1CC1 | 14-2 | - | 0.25 µg/mL
O=C(Nc1ccc(Cl)c(Cl)c1)c1cc([N+](=O)[O-])ccc1O | CNCTC MY330/88 | - | 31 µM
COc1ccc(NC(=O)OCC[NH+]2CCCC2)cc1 | MY330/88 | - | >1000 µM
O=C(Nc1cccc(F)c1)c1cc(Br)ccc1O | CNCTC MY330/88 | - | 31 µM
Cc1cc(C)c(-n2nnnc2SSc2nnnn2-c2c(C)cc(C)cc2C)c(C)c1 | 80/72 | - | >1000 µM
COc1ccc(NC(=O)c2cc(Cl)ccc2O)cc1 | CNCTC MY330/88 | - | 31 µM
CCCCCCCCOc1cccc(NC(=O)OCCN2CCCCCC2)c1 | MY330/88 | - | 8 µM
Clc1ccc(C(Cn2ccnc2)OC/C=C/c2ccccc2)cc1 | 103317 | - | 23.7 µM
Nc1ccccc1C(=O)Nc1cccc(Cl)c1 | MY330/88 | - | >500 µM
CCCCCCCCCCOc1ccc(NC(=O)OCC[NH+]2CCCC2)cc1 | MY330/88 | - | 16 µM
COc1ccc(C(N)=Nc2nc(-c3ccccn3)cc3ccccc23)cc1 | SN 304 | - | 0.25 µg/mL
O=C(O)CCc1ccccc1 | - | - | >100 µM
c1ccc(-c2ccc(CNc3cccc(N4CCOCC4)c3)cc2)cc1 | 103317 | - | 22.3 µM
Cc1ccc(OC/C(N)=N\NC(=O)c2ccncc2)cc1 | ATCC 19421 | - | >100 µg/mL
CCCCCOc1ccccc1NC(=O)OCCN1CCCCCC1 | MY330/88 | - | 32 µM
Nc1ccc(Cl)cc1C(=O)Nc1ccc(F)cc1 | MY330/88 | - | 125 µM
CC(=O)Nc1ccc(OC/C(N)=N\NC(=O)c2ccncc2)cc1 | ATCC 19421 | - | >100 µg/mL
Cc1ccc(-n2nnc3ccccc3c2=O)cc1 | MY330/88 | - | 125 µM
O=C(Nc1cccc([N+](=O)[O-])c1)c1cc(Br)ccc1O | CNCTC MY330/88 | - | 31 µM
c1ccc(-n2nnnc2SSc2nnnn2-c2ccccc2)cc1 | 80/72 | - | 1000 µM
CCOc1cccc(NC(=O)OCC[NH+]2CCCC2)c1 | MY330/88 | - | >1000 µM
NC(=Nc1nc(-c2ccccn2)cc2ccccc12)c1ccc(Cl)c(Cl)c1 | SN 304 | - | 0.5 µg/mL
CC(C)=CCCC(C)C/C=C/C(C)=C/C(=O)O | - | - | 15.6 µM
C(=C\c1ccccc1)/CNC(Cn1ccnc1)c1ccccc1 | 103317 | - | 52.7 µM
CCCCCCCCCOc1ccc(NC(=O)OCC[NH+]2CCCC2)cc1 | MY330/88 | - | 16 µM
CCOc1c(N2CCC(C(C)(C)N)C2)c(F)cc2c(=O)c(C(=O)O)cn(C3CC3)c12 | LR114R | - | 0.06 µg/mL
O=C(Nc1ccc(F)cc1)c1cc(Br)ccc1O | CNCTC MY330/88 | - | 31 µM
CC1(C)Nc2ccc(Cl)cc2C(=S)N1c1cccc(Cl)c1 | MY330/88 | - | >250 µg/mL
CCOc1cccc(NC(=O)OCCN(C)C)c1 | MY330/88 | - | >250 µM
O=C(Nc1cccc(F)c1)c1cc(F)ccc1O | CNCTC MY330/88 | - | 31 µM
O=c1nc2c(ncn2Cc2ccccc2)c(C#Cc2ccccc2)n1Cc1ccccc1 | - | VERO | >12.5 µg/mL
O=C(Nc1cccc([N+](=O)[O-])c1)c1cc(Br)ccc1O | CNCTC MY330/88 | - | 31 µM
Cc1cccc(OC/C(N=Cc2ccncc2)=N\NC(=O)c2ccncc2)c1 | ATCC 19421 | - | >100 µg/mL
NC(=S)c1cc(N2CCCCC2)ccn1 | 330/88 | - | 125 µM
CCCCCCCCCCOc1ccccc1NC(=O)OCC[NH+]1CCCC1 | MY330/88 | - | 16 µM
CC1(C)Nc2ccccc2C(=S)N1c1ccc(Cl)c(Cl)c1 | MY330/88 | - | >62.5 µg/mL
O=C(Nc1cccc(F)c1)c1cc(Br)ccc1O | CNCTC MY330/88 | - | 31 µM
Clc1ccc(CNc2ccc(N3CCSCC3)cc2)cc1 | 103317 | - | 103 µM
CCOC(=O)c1ccc(NC(=O)c2cc(C)ccc2O)cc1 | CNCTC MY330/88 | - | >1000 µM
O=C(N/N=C(\COc1ccccc1)N=Cc1cccnc1)c1ccncc1 | ATCC 19421 | - | >100 µg/mL

A second listing of 8 rows from above:

SMILES | strain | cell line | value
O=C(Nc1ccc(F)cc1)c1cc(Br)ccc1O | CNCTC MY330/88 | - | 31 µM
CCCCCCCCCCCCCC(C(=O)O)c1ccccc1 | - | - | 2.5 µM
CCOC(=O)c1ccc(NC(=O)c2cc(C)ccc2O)cc1 | CNCTC MY330/88 | - | >1000 µM
O=C(N/N=C(\COc1ccccc1)N=Cc1cccnc1)c1ccncc1 | ATCC 19421 | - | >100 µg/mL
CC(=O)NC[C@H]1CN(c2ccc(N3CCN(c4ccc([N+](=O)[O-])s4)CC3)c(F)c2)C(=O)O1 | AIIMS | - | 0.25 µg/mL
O=C(Nc1cccc([N+](=O)[O-])c1)c1cc(Br)ccc1O | CNCTC MY330/88 | - | 31 µM
NC(=Nc1nc(-c2ccccn2)cc2ccccc12)c1ccc(Cl)c(Cl)c1 | SN 304 | - | 0.5 µg/mL
Clc1ccc(C(Cn2ccnc2)OC/C=C/c2ccccc2)cc1 | 103317 | - | 23.7 µM